Km data for one compound are collected here from paper PMC4516937 (Toxins, 2015).

The chains behind the UniProt entries cited, without tags or fusion partners. Where a name states a change or a piece, a line headed by the entry shows the natural chain unless it says otherwise.
UniProt Q7XT97: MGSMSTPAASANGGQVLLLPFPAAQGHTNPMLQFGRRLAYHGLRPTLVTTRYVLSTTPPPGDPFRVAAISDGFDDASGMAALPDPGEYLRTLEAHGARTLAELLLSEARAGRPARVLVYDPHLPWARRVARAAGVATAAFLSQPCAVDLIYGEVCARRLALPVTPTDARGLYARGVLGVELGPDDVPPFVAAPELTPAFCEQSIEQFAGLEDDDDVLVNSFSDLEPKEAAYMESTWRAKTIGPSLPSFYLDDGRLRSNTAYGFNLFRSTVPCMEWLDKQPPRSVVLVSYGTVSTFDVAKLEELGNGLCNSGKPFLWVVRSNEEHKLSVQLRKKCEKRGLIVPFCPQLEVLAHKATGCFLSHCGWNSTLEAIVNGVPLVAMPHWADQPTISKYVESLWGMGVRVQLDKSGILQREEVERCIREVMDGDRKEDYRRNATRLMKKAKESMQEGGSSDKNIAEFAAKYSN

This assay concerns the target OsUGT79 (Oryza sativa, UniProt Q7XT97).

Turning to `CC1=C[C@H]2O[C@@H]3[C@H](O)C[C@](C)([C@@]2(CO)[C@H](O)C1=O)[C@]31CO1`, the Km (commonly the concentration of substrate that gives half-maximal velocity) worked out at 230 µM.
